Measured values: US20090053187A1 (priority 2005, published 2009)
Several values for one entry are separate records, joined by “and”; a condition that tells them apart may be missing. Identical values can stand only once.

Tested on: Bacillus anthracis 71/12 (Tsenkovsky vaccine II)
Design: species or system outbred white mice
Conditions: mouse, in vivo

Substance: bovine serum albumin
- Death of animal on day 2: 2 and 1
- Death of animal on day 3: 1 and 2
- Death of animal on day 6: 1 and 2
- Number of perished/Number of infected: 5/5
- mortality: 100%
